Laboratory results as given in patent US20190002533A1 (Novartis, published 2019).

T1: BKV serotype III VLPs (BK virus (BKV) serotype III, UniProt P14996 1-362)
T1 chain: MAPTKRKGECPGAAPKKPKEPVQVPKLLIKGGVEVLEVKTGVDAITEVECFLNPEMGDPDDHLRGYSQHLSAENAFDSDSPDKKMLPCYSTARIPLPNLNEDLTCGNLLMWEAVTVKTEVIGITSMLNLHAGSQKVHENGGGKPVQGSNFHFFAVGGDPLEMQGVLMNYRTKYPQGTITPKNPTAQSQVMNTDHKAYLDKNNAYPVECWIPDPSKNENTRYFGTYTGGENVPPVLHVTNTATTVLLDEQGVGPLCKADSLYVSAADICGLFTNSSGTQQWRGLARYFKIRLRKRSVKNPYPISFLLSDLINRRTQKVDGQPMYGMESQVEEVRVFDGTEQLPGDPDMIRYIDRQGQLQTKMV

T2: BKV serotype I VP1 pentamer (BK virus (BKV) serotype I, UniProt P03088 30-297)
T2 construct: also called serotype I pentamers; BKV-VP1 serotype I pentameric protein
T2 chain: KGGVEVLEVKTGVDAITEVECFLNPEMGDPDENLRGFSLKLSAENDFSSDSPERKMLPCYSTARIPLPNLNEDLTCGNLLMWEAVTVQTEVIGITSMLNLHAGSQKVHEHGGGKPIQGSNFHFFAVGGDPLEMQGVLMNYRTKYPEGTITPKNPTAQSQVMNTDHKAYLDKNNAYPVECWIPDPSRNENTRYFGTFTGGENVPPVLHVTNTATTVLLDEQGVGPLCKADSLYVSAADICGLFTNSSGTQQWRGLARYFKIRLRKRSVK

T3: BKV serotype IV VP1 pentamer (BK virus (BKV) serotype IV, UniProt P14996 30-297)
T3 construct: also called serotype IV pentamers
T3 chain: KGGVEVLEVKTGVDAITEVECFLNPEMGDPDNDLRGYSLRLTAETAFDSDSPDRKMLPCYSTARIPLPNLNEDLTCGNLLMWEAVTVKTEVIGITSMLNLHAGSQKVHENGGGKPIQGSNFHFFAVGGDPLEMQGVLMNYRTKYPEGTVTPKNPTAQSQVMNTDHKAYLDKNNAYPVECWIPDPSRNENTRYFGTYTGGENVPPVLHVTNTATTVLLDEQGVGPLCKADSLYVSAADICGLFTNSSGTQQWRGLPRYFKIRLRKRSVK

B1: EBB-C1975-A3 (antibody, V domains shown)
VH: EVQLVETGGGLVQPGGSLRLSCAASGFTVRRNYMSWVRQAPGKGLEWVSGIYSGGSTYYADSVKGRFTISRDYSKNTLSLQMNTLRVEDTAVYFCAREDEFWSGYSAGVDWGQGTLVTVSS
VL: not shown
B2: EBB-C1975-E7 (antibody, human IgG1, kappa, V domains shown)
VH: B1 VH with V5L, T7S, Q13R, L20V, R30S, S53G, S56R, D61E, S79F, V92L
VL: DIQVTQSPSSLSASVGDRVTITCRASQSISSYLNWYQQEPGKAPKLLIYAASTLQTGVPSRFSGSGSGTDFTLTISSLQPEDFATYYCQQSYNTPRTFGQGTKVEIKR
B3: EBB-C1975-A7 (antibody, V domains shown)
VH: B1 VH with E1Q, T7S, R30S
VL: not shown
B4: NEG447A (antibody, human IgG1, lambda, V domains shown)
VH: QVQLQESGPGLVKPSETLSLTCTVSGGSISRDYWSWVRQPPGAGLEWIGNIYYSGSTNYNPSLKSRVTISVATNKKQFSLKLTSVTAADTAVYYCARVPGCSSTSCIDGWFDPWGQGILVTVSS
VL: QSVLTQPPSVSAAPGQKVTISCSGSSSNIGNTYVSWYQQLPGTAPKLLIYDNNKRPSGIPDRFSGSKSGTSATLGITGLQTGDEADYYCGTWDSSLSAWVFGGGTRLTVLG
B5: P8D11 (antibody, human IgG1, lambda)
heavy: not shown
light: QSVLTQPPSVSVAPGKTARITCGGDNIGSRPVHWYQQKPGQAPILVVYDDSNRPSGIPERFSGSNSGNTATLTISRVEAGDEADYYCQVWSSSTDHPFGGGTKVTVLGQPKAAPSVTLFPPSSEELQANKATLVCLISDFYPGAVTVAWKADSSPVKAGVETTTPSKQSNNKYAASSYLSLTPEQWKSHRSYSCQVTHEGSTVEKTVAPTECS

Experiments:
BKV serotype III VLPs = target: T1, BKV serotype III VLPs; experiment: SPR (Biacore): antibody captured via protein A, VLPs flowed over
[1] = target: T2, BKV serotype I VP1 pentamer; experiment: SPR (Biacore): antibody captured via protein A, VP1 pentamers flowed over
[2] = target: T3, BKV serotype IV VP1 pentamer; experiment: not stated in Table 3 (SET on pentamers is the affinity assay of the filing)
JCV L55F mutant VLPs = JCV L55F mutant VLPs (JC virus (JCV), UniProt P03089 1-354); experiment: SET, P8D11 at 9 nM or 1 pM, VLPs titrated, MSD read-out

| Binder | binding result (BKV serotype III VLPs) | binding result [1] | fold greater affinity (reference NEG447 or P165E2, not clear) [2] [fold] | fold lower affinity than for wild type (consensus) and S269F mutant VLPs (JCV L55F mutant VLPs) [fold] |
| --- | --- | --- | --- | --- |
| B1 | no binding (tested: not printed) | no binding (tested: not printed) |  |  |
| B2 | no binding (tested: not printed) | no binding (tested: not printed) |  |  |
| B3 | no binding (tested: not printed) | no binding (tested: not printed) |  |  |
| B4 |  |  | ~10 |  |
| B5 |  |  |  | ~2 |

Positions count from the first letter of the chain named.
